Paper PMC3025325, “Identification of a κ-opioid agonist as a potent and selective lead for drug development against human African trypanosomiasis” (Biochemical Pharmacology, 2010)

How the values were obtained:
[1] = system: T. b. brucei (strain 427); assay: Efficacy study in mice infected with T. b. brucei; settings: 150 mg kg−1 orally every 4 h for 32 h, from 3 days after infection
[2] = Brain penetration after intravenous dosing; settings: 2 mg kg−1 intravenous, 5 min post-dose
[3] = system: bloodstream forms of Trypanosoma brucei; assay: Resazurin cell viability assay, EC50 determinations against T. brucei; type: cell-based, T. b. brucei (strain 427); settings: for Activity against T. brucei (in words): opioid receptor ligands
[4] = Oral exposure (blood pharmacokinetics) and tolerability in uninfected mice
[5] = system: T. brucei; assay: Effect on T. brucei culture growth by direct cell counting (haemocytometer)
[6] = system: MRC5 cells; assay: Resazurin cell viability counter-screen, EC50 determinations against mammalian cells; type: cell-based; settings: fold-specificity for T. brucei over human fibroblasts (MRC5)
[7] = read-out: EC50 vs. T. brucei, LOPAC hits (library screening), 3 days incubation, mean of 3 determinations weighted to standard error
[8] = read-out: EC50 of opioid receptor ligands against T. brucei, purchased samples, weighted mean of 3 determinations, norbinaltorphimine max 50 μM due to solubility

CN(C(=O)Cc1ccc(Cl)c(Cl)c1)[C@@H]1CCCC[C@H]1N1CCCC1
Efficacy in infected mice [1]: not curative
Brain to blood ratio [2]: 8.2
EC99 (calculated/predicted from EC50 and Hill slope) ([3]; T. brucei growth inhibition): 0.74 µM
Potency against T. brucei relative to (−)-U50,488 ([3]; ratio of EC50 values): 70 times
EC50 ([3]; read-out: EC50 against T. brucei, authentic (+)-U50,488 sample, purchased authentic sample, mean weighted to standard error): 0.0589 µM
EC50 [3, 7]: 0.059 µM
EC50 ([3]; read-out: EC50 vs. T. brucei, LOPAC hits (library screening), 3 days incubation, mean of 3 determinations weighted to standard error, listed as (+)-trans-(1R,2R)-U50,488): 0.06 µM
Tolerability ([4]; 150 mg kg−1, oral route, uninfected mice): well tolerated
Half-life ([4]; free blood concentration, single oral dose 150 mg kg−1): 2.6 ± 0.04 h
Peak free blood concentration ([4]; single oral dose 150 mg kg−1): 800 ng/mL
Time of peak free blood concentration after dosing ([4]; single oral dose 150 mg kg−1): 1 h
Effect on T. brucei culture growth ([5]; 30 μM, 500 times EC50): cytocidal effect
Effect on T. brucei culture growth ([5]; 100 times the EC50): cytostatic
Selectivity [6]: 270

CN(C(=O)Cc1ccccc1)C1CCC2(CCCO2)CC1N1CCCC1 (stereo not drawn)
Activity against T. brucei (in words) [3]: inactive
EC50 [3, 8]: > 100 µM

Oc1ccc2c3c1O[C@H]1c4[nH]c5c(c4C[C@@]4(O)[C@@H](C2)N(CC2CC2)CC[C@]314)C[C@@]1(O)[C@H]2Cc3ccc(O)c4c3[C@@]1(CCN2CC1CC1)[C@H]5O4
Activity against T. brucei (in words) [3]: complete lack of activity
EC50 [3, 8]: > 50 µM

CN(C(=O)Cc1ccc(Cl)c(Cl)c1)[C@H]1CCCC[C@@H]1N1CCCC1
EC50 [3, 8]: 4.11 µM

(±) trans-U-50488 methanesulfonate
EC50 [3, 7]: 0.113 µM

CN(C(=O)Cc1ccc(Cl)c(Cl)c1)[C@H](CN1CCCC1)c1cccc(N=C=S)c1
EC50 [3, 8]: 4.58 µM

Read-outs that look alike come from different tables or passages of the source.
